Compound potency records, mixed from different reports. Data source: NIAID ChemDB in PubChem.

Common to all: whole-cell or culture tests; species: HIV-1; method: p24; read-out: EC50

Lines come from different laboratories, so protocols vary. Blank or dashed fields: not listed here. ECn is the concentration giving n% inhibition of infection, replication or growth.

SMILES,strain or isolate,mutations,setting,cell line,result
CC(C)=CCN1Cc2cc(Cl)cc3[nH]c(=S)n(c23)C[C@@H]1C,BaL,,,MM + M/M,0.05 µg/mL
CC(C)(C)NC(=O)[C@@H]1C[C@@H]2CCC[C@@H]2CN1C[C@@H](O)[C@H](Cc1ccccc1)NC(=O)O[C@H]1CCOC1,IIIB,,,MT-4,<0.4 µM
O=C(OC[C@H]1O[C@@H](OC(=O)c2cc(O)c(O)c(O)c2)[C@H](O)[C@@H](OC(=O)c2cc(O)c(O)c(O)c2)[C@@H]1O)c1cc(O)c(O)c(O)c1,IIIB,,,MOLT-3,<33 µg/mL
COc1ccc(CN[C@@H](C(=O)N[C@H]2c3ccccc3C[C@H]2O)[C@H](O)[C@H](Cc2ccccc2)NC(=O)[C@@H](NC(=O)OCc2ccccc2)C(C)(C)C)cc1,HEM,,,Primary T4 cells + T4,0.12 µM
COc1cc(C[C@@]2(O)C(=O)OC[C@@H]2Cc2ccc(OC)c(OC)c2)ccc1O,IIIB,,,H9,~0.52 µM
CC(C)[C@H]1[C@@H](OC(=O)N[C@@H](Cc2ccccc2)[C@H](O)CN2C[C@H]3CCCC[C@H]3C[C@H]2C(=O)NC(C)(C)C)CCS1(=O)=O,IIIB,,,MT-4,<0.2 µM
COc1ccc2c(O)c(C(c3cccc(NS(=O)(=O)c4ccc(F)cc4)c3)C3CC3)c(=O)oc2c1,IIIB,,,MT-4,>>10 µM
Cc1occc1C(=S)Nc1ccc(Cl)c(/C=N/OC(C)(C)C)c1,BaL,,,MM + M/M,0.85 µg/mL
O=C(O)C(=O)CC(=O)c1cccn1Cc1ccccc1,IIIB,,,MT-4,<32 µM
CC(C)=CCOc1cc(NC(=S)c2ccoc2C)ccc1Cl,BaL,,,MM + M/M,0.08 µg/mL
CCCc1nnc(C[C@H](C[C@H](O)CN2CCN(C(C)(C)c3ncc(-c4ccc(F)cc4)o3)C[C@H]2C(=O)NCC(F)(F)F)C(=O)N[C@H]2c3ccccc3OC[C@H]2O)o1,V-18 Clinical isolate,PR-L10I M36I N37D M46I R57K L63P A71V G73S I84V L90M I93L,,MT-4,<0.063 µM
Cn1cnc(S(=O)(=O)Nc2cccc(C(c3c(O)cc(CCc4ccccc4)oc3=O)C3CC3)c2)c1,IIIB,,,MT-4,>>3 µM
Cc1cn([C@H]2C[C@H](N=[N+]=[N-])[C@@H](COC(=O)C(=O)N[C@@H](CC(C)C)C(=O)O)O2)c(=O)[nH]c1=O,IIIB,,,PBMC,0.01 µM
O=C(N[C@H]1c2ccccc2OC[C@H]1O)[C@H](Cc1nnco1)C[C@H](O)CN1CCN(Cc2ccc(-c3ccc(Cl)cc3)o2)C[C@H]1C(=O)NCC(F)(F)F,Q-60 Clinical isolate,PR-L10I N37S R41K M46I I54V I62V L63P A71V V77I V82A L90M I93L,,MT-4,<0.031 µM
CC(C)(C)NC(=O)[C@@H]1C[C@@H]2CCCC[C@@H]2CN1C[C@@H](O)[C@H](Cc1ccccc1)NC(=O)[C@H](CC(N)=O)NC(=O)c1ccc2ccccc2n1,NL4-3,PR-V82T,,MT-4,<0.025 µM
Nc1nc(Cl)c2ncn(CCCCCB(O)O)c2n1,BaL,,,PBMC,<0.5 µM
CC(C)[C@@H]1[C@H](OC(=O)N[C@@H](Cc2ccccc2)[C@H](O)CN2C[C@H]3CCCC[C@H]3C[C@H]2C(=O)NC(C)(C)C)CCS1(=O)=O,IIIB,,,MT-4,<0.05 µM
O=c1[nH]cnc2c1ncn2[C@H]1CC[C@@H](CO)O1,RF,,,PBL,0.33 µM
O=C(O)C(=O)CC(=O)c1cccc(Cc2cccc(F)c2)c1,IIIB,,,MT-4,<2.5 µM
O=C1N(Cc2ccc(CO)cc2)[C@H](Cc2ccccc2)[C@H](O)[C@@H](O)[C@@H](Cc2ccccc2)N1Cc1ccc(CO)cc1,NL4-3,,,MT-4,<0.2 µM
CC(C)(C)NC(=O)[C@@H]1C[C@@H]2CCCC[C@@H]2CN1C[C@@H](O)[C@H](Cc1ccccc1)NC(=O)[C@H](CC(N)=O)NC(=O)c1ccc2ccccc2n1,NL4-3,PR-D30N N88D,,MT-4,<0.01 µM
CC(C)c1c(COC(N)=O)cn(Cc2ccncc2)c1Sc1ccccc1,,RT-Y181C,,C8166,>100 µM
CC(C)(c1ncc(-c2ccc(Cl)cc2)o1)N1CCN(C[C@@H](O)C[C@@H](Cc2nnc(-c3ccccc3)o2)C(=O)N[C@H]2c3ccccc3OC[C@H]2O)[C@H](C(=O)NCC(F)(F)F)C1,K-60 Clinical isolate,PR-L10I M46I I54V Q58E L63P I64V V77I V82F I84V L90M I93L,,MT-4,<0.008 µM
C[C@H]1[C@H](C)CC[C@]2(C(=O)O)CC[C@]3(C)C(=CC[C@@H]4[C@@]5(C)CC[C@H](O)C(C)(C)[C@@H]5CC[C@]43C)[C@H]12,IIIB,,,H9,2 µg/mL
CC(C)(c1ncc(-c2ccc(Cl)cc2)o1)N1CCN(C[C@@H](O)C[C@@H](Cc2nnco2)C(=O)N[C@H]2c3ccccc3OC[C@H]2O)[C@H](C(=O)NCC(F)(F)F)C1,V-18 Clinical isolate,PR-L10I M36I N37D M46I R57K L63P A71V G73S I84V L90M I93L,,MT-4,<0.063 µM
Nc1nc(NC2CC2)c2ncn([C@H]3C=C[C@@H](CO)C3)c2n1,MDR769 Multidrug-resistant isolate,,,PBMC,0.9 µM
CC[C@H](C)[C@H](C(=O)O)N1C[C@H](CN2CCC(c3cc(Cc4ccc(OC)c(OC)c4)nn3CC)CC2)[C@@H](c2cccc(F)c2)C1,BaL,,,PBMC,<0.0055 µM
C[C@@H]1OCC[C@@H]1OC(=O)N[C@@H](Cc1ccccc1)[C@H](O)CN1C[C@H]2CCCC[C@H]2C[C@H]1C(=O)NC(C)(C)C,IIIB,,,MT-4,<0.4 µM
COc1cc([C@@H]2c3cc4c(cc3[C@H](O)[C@H]3COC(=O)[C@H]23)OCO4)cc(OC)c1OC,IIIB,,,H9,<0.007 µM
CCC(C)(CC(=O)O)CC(=O)O[C@H]1CC[C@@]2(C)C(CC[C@]3(C)C2CC=C2C4CC(C)(C)CC[C@]4(C(=O)O)CC[C@]23C)C1(C)C,IIIB,,,H9,1.1 µg/mL
C[C@@H]1[C@H](OC(=O)N[C@@H](Cc2ccccc2)[C@H](O)CN2C[C@H]3CCCC[C@H]3C[C@H]2C(=O)NC(C)(C)C)CCS1(=O)=O,IIIB,,,MT-4,<0.2 µM
Cc1ccc(-c2ccc3c(c2)C=C(C(=O)Nc2ccc(C[N+](C)(C)C4CCOCC4)cc2)CCC3)cc1,KK,,,PBMC,0.0016 µM
Cc1cn([C@H]2C[C@H](N=[N+]=[N-])[C@@H](COC(=O)C(=O)NC(Cc3ccccc3)C(=O)O)O2)c(=O)[nH]c1=O,IIIB,,,PBMC,0.45 µM
NOCc1c(F)cccc1Cl,IIIB,,,MOLT-4,>43.5 µg/mL
C[C@@H]1CC[C@]2(C(=O)O)CC[C@]3(C)C(=CCC4[C@@]5(C)CC(=O)[C@H](O)C(C)(C)C5CC[C@]43C)C2[C@]1(C)O,IIIB,,,H9,20 µg/mL
CC[C@@H]1[C@H](OC(=O)N[C@@H](Cc2ccccc2)[C@H](O)CN2C[C@H]3CCCC[C@H]3C[C@H]2C(=O)NC(C)(C)C)CCS1(=O)=O,IIIB,,,MT-4,<0.8 µM
CCn1nc(Cc2ccc(C#N)cc2)cc1C1CCN(C[C@H]2CN([C@@H](C(=O)O)C(C)(C)C)C[C@@H]2c2cccc(F)c2)CC1,BaL,,50% human serum,PBMC,<0.0093 µM
CCC(Cc1ccccc1)c1cc(O)c(C(c2cccc(NS(=O)(=O)c3ccc(OC)cc3)c2)C2CC2)c(=O)o1,IIIB,,,MT-4,1.8 µM
Cc1nnc(C[C@H](C[C@H](O)CN2CCN(C(C)(C)c3ncc(-c4ccc(Cl)cc4)o3)C[C@H]2C(=O)NCC(F)(F)F)C(=O)N[C@H]2c3ccccc3OC[C@H]2O)o1,V-18 Clinical isolate,PR-L10I M36I N37D M46I R57K L63P A71V G73S I84V L90M I93L,,MT-4,<0.063 µM
CC(C)CCC[C@@H](C)[C@H]1CC[C@H]2[C@@H]3CC[C@H]4C[C@@H](CCC=C(c5cc(Cl)c(O)c(C(=O)O)c5)c5cc(Cl)c(O)c(C(=O)O)c5)CC[C@]4(C)[C@H]3CC[C@]12C,RF,,,PBL,5.3 µM
O[C@H]1OC[C@H](Cc2ccc3c(c2)OCO3)[C@H]1Cc1ccc2c(c1)OCO2,IIIB,,,H9,<12.7 µM
CC(C)c1c(CO)cn(Cc2ccncc2)c1Sc1ccccc1,,RT-Y181C,,C8166,>100 µM
Cc1cn([C@H]2C[C@H](N=[N+]=[N-])[C@@H](COC(=O)C(=O)O)O2)c(=O)[nH]c1=O,IIIB,,,MT-2,0.03 µM
CC(C)(c1ncc(-c2ccc(F)cc2)o1)N1CCN(C[C@@H](O)C[C@@H](Cc2nnco2)C(=O)N[C@H]2c3ccccc3OC[C@H]2O)[C@H](C(=O)NCC(F)(F)F)C1,NL4-3 WT,,,MT-4,<0.125 µM
[B-][P@](=O)(OC[C@H]1O[C@@H](n2cc(C)c(=O)[nH]c2=O)C[C@@H]1N=[N+]=[N-])OP(=O)(O)C(F)(F)P(=O)(O)O,MDR769 Multidrug-resistant isolate,,,PBMC,<0.005 µM
c1cc2c(cc1[C@H]1OC[C@H]3[C@@H]1CO[C@@H]3c1ccc3c(c1)OCO3)OCO2,IIIB,,,H9,<8.2 µM
Cc1cn([C@H]2C[C@H](N=[N+]=[N-])[C@@H](CO)O2)c(=O)[nH]c1=O,IIIB,,,H9,0.012 µg/mL

Repeating the first 7 entries:

SMILES	strain or isolate	mutations	setting	cell line	result
CC(C)=CCN1Cc2cc(Cl)cc3[nH]c(=S)n(c23)C[C@@H]1C	BaL			MM + M/M	0.05 µg/mL
CC(C)(C)NC(=O)[C@@H]1C[C@@H]2CCC[C@@H]2CN1C[C@@H](O)[C@H](Cc1ccccc1)NC(=O)O[C@H]1CCOC1	IIIB			MT-4	<0.4 µM
O=C(OC[C@H]1O[C@@H](OC(=O)c2cc(O)c(O)c(O)c2)[C@H](O)[C@@H](OC(=O)c2cc(O)c(O)c(O)c2)[C@@H]1O)c1cc(O)c(O)c(O)c1	IIIB			MOLT-3	<33 µg/mL
COc1ccc(CN[C@@H](C(=O)N[C@H]2c3ccccc3C[C@H]2O)[C@H](O)[C@H](Cc2ccccc2)NC(=O)[C@@H](NC(=O)OCc2ccccc2)C(C)(C)C)cc1	HEM			Primary T4 cells + T4	0.12 µM
COc1cc(C[C@@]2(O)C(=O)OC[C@@H]2Cc2ccc(OC)c(OC)c2)ccc1O	IIIB			H9	~0.52 µM
CC(C)[C@H]1[C@@H](OC(=O)N[C@@H](Cc2ccccc2)[C@H](O)CN2C[C@H]3CCCC[C@H]3C[C@H]2C(=O)NC(C)(C)C)CCS1(=O)=O	IIIB			MT-4	<0.2 µM
COc1ccc2c(O)c(C(c3cccc(NS(=O)(=O)c4ccc(F)cc4)c3)C3CC3)c(=O)oc2c1	IIIB			MT-4	>>10 µM